Measured values from several laboratories, pooled; numbers as filed in NIAID ChemDB.

Common to all: tests in culture

An empty or dashed field is not shown. Percent inhibition refers to the dose given; in toxicity tests it is the harm to the cells. ECn: concentration that inhibits the pathogen or its effect by n%. Neighbouring rows are from separate reports.

compound	species	strain or isolate	cell line	endpoint	dose	value
CC(C)CCC[C@@H](C)[C@H]1CCC2C3CC[C@H]4C[C@H](OS(=O)(=O)O)[C@@H](OS(=O)(=O)O)C[C@]4(C)C3CC[C@@]21C	Junin virus	IV4454	VERO	EC50		>25 µg/mL
N=C(N)c1ncn([C@@H]2O[C@H](CO)[C@@H](O)[C@H]2O)n1	Influenza A virus	H5N1 A/gull/PA/4175/83	MDCK	inhibition	7 µg/mL	90%
Cc1cc(=O)c2c(O)c3c(O)cc(O)c4c5c(O)cc(O)c6c(O)c7c(=O)cc(C)c8c1c2c(c34)c(c65)c78	Poliovirus	Brunhilde (type 20)	BSC-1	EC50		>100 µg/mL
Nc1ccn(C[C@H]2COP(=O)(O)CO2)c(=O)n1	Monkeypox virus	Zaire strain wild-type	VERO 76	EC50		34 µM
O=c1cnn([C@@H]2O[C@H](CO)[C@@H](O)[C@H]2O)c(=O)[nH]1	Camelpox virus		VERO 76	EC50		3.1 µM
NC(=O)c1csc([C@@H]2O[C@H](CO)[C@@H](O)[C@H]2O)n1	Hantaan virus	HBL7990	VERO	EC50		1.5 µg/mL
O=c1[nH]cnc2c1ncn2[C@H]1CC[C@@H](CO)O1	Cowpox virus		VERO	EC50		>423 µM
O=c1cnn([C@@H]2O[C@H](CO)[C@@H](O)[C@H]2O)c(=O)[nH]1	Yellow fever virus	FNV	VERO	EC90		0.9 µg/mL
NC(=O)c1ncn([C@@H]2O[C@H](CO)[C@@H](O)[C@H]2O)n1	Yellow fever virus		VERO	EC50		32 µg/mL
Nc1nc(=O)c2ncn(COCCO)c2c(=O)[nH]1	Japanese encephalitis virus		HepG2.2.15	EC50		>500 µM
NC(=O)c1ncn([C@@H]2O[C@H](CO)[C@@H](O)[C@H]2O)n1	Vaccinia virus			inhibition	50 µg/mL	100%
Nc1ncnc2c1ncn2[C@@H]1O[C@H](CO)C(O)OC1O	Junin virus	XJCL3	VERO	EC50		0.6 µg/mL
Cn1cnc([N+](=O)[O-])c1Sc1ncnc2nc[nH]c12	Vaccinia virus		BSC-40	inhibition	25 µg/mL	80%
CC1=C[C@H]2O[C@@H]3C[C@H]4OC(=O)/C=C\C=C\[C@H]([C@@H](C)O)OCC[C@@H](C)[C@H](O)C(=O)OC[C@@]2(CC1)[C@]4(C)[C@]31CO1	Junin virus		VERO	EC50		0.0031 µg/mL
NC(=O)c1nc(F)c[nH]c1=O	Influenza A virus	H2N2 OKUDA/57	MDCK	EC50		0.013 µg/mL
CNC12CC3CC(C1)CC(C(C)C)(C3)C2	Influenza A virus	H2N2 A/Singapore/1/57	MDCK	inhibition	8 µg/mL	100%
CC1=C[C@H]2O[C@@H]3C[C@H]4OC(=O)/C=C\C=C\C(=O)OCC[C@@H](C)[C@H](O)C(=O)OC[C@@]2(CC1)[C@]4(C)[C@]31CO1	Junin virus		VERO	EC50		0.0049 µg/mL
CC(=O)c1ncn([C@@H]2CO[C@H](CO)[C@@H](O)[C@H]2O)n1	Yellow fever virus			EC50		>64 µg/mL
Cc1cn([C@H]2C[C@H](N=[N+]=[N-])[C@@H](CO)O2)c(=O)[nH]c1=O	Cowpox virus		VERO	EC50		>374 µM
Nc1ccn(C[C@@H](CO)OCP(=O)(O)O)c(=O)n1	Monkeypox virus		BSC	EC50		47 µM
CCCCCCCCCCCCNc1nc(=O)c2[nH]cnc2c(=O)[nH]1	Japanese encephalitis virus		HepG2.2.15	EC50		>500 µM
Nc1nccc2c1ncn2[C@@H]1C[C@H](CO)[C@@H](O)[C@H]1O	Camelpox virus	Somalia wild type	VERO 76	EC50		39 µM
CCCCC12CC3CC(C1)CC(NC)(C3)C2	Influenza A virus	H2N2 A/Singapore/1/57	MDCK	inhibition	8 µg/mL	100%
Nc1ncnc2c1ncn2[C@@H]1C=C(CO)[C@@H](O)[C@H]1O	Junin virus	XJCL3	VERO	EC50		0.3 µg/mL
Nc1ccn([C@H]2CC[C@@H](CO)O2)c(=O)n1	Vaccinia virus		HFF	EC50		>474 µM
CCCCCCCCCCCCNc1nc(=O)c2ncn(Cc3ccc(OC)cc3)c2c(=O)[nH]1	Japanese encephalitis virus		HepG2.2.15	EC50		>500 µM
NC(=O)c1ncn([C@@H]2O[C@H](CO)[C@@H](O)[C@H]2O)n1	Venezuelan equine encephalitis virus		VERO	EC50		>250 µM
CCCCCCCCCCN1[C@H](CN)[C@@H](O)[C@H](O)[C@H]1CO	Japanese encephalitis virus			EC50		>10 µM
Nc1ccn([C@@H]2CS[C@H](CO)O2)c(=O)n1	Cowpox virus		VERO	EC50		>436 µM
CC(=O)N[C@H]1[C@H]([C@H](O)[C@H](O)CO)OC(C(=O)O)=C[C@@H]1N=C(N)N	Influenza A virus	A/Singapore/1/57	MDCK	EC50		0.014 µM
CCC12CC3(C)CC(C)(CC([NH3+])(C3)C1)C2	Influenza A virus	H2N2 A/Singapore/1/57	MDCK	inhibition	8 µg/mL	100%
CCCCCCCCCCCCCCCCCCOCCOP(=O)(O)CO[C@H](CO)Cn1ccc(N)nc1=O	Vaccinia virus	NYC	HFF	EC50		0.1 µM
NC(=O)c1ncn(C2OC(CO)CC2O)n1	Rift valley fever virus			EC50		117 µg/mL
CC(=O)N[C@H]1[C@@H](O[C@@H]2O[C@H](C[C@@H](O)[C@H]3O[C@@H](n4ccc(=O)[nH]c4=O)[C@H](O)[C@@H]3O)[C@H](O)[C@H](O)[C@H]2NC(=O)/C=C/CC(C)C)O[C@H](CO)[C@@H](O)[C@@H]1O	Poliovirus	TYPE 1	BSC-1	inhibition	0.5 µg/mL	0%
Nc1ncnc2c1ncn2[C@@H]1C=C(CO)[C@@H](O)[C@H]1O	Vaccinia virus			MIC		0.02 µg/mL
COc1c(C)c2c(c(O)c1C/C=C(\C)CCC(=O)O)C(=O)OC2	Camelpox virus		3T3	EC50		0.3 µM
NC(=O)c1ncn([C@@H]2O[C@H](CO)[C@@H](O)[C@H]2O)n1	Junin virus	XJCL3	VERO	EC50		1 µg/mL
N#Cc1c(SCCO)nsc1-c1ccccc1	Poliovirus	Brunhilde (type 1)	HEP-2	EC50		0.3 µg/mL
O=C1Nc2ncn(Cc3ccccc3)c2C(=O)N(Cc2ccccc2)N1	Japanese encephalitis virus		HepG2.2.15	EC50		>500 µM
CCCSc1nsc(-c2ccccc2)c1C#N	Poliovirus	Brunhilde (type 1)	HEP-2	EC50		15 µg/mL
Cn1cc(NC(=O)c2cc(NC(=O)c3cc(NC=O)cn3C)cn2C)cc1C(=O)NCCC(=N)N	Vaccinia virus		BSC-40	inhibition	50 µM	100%
Nc1nccc2c1ncn2[C@@H]1C=C(CO)[C@@H](O)[C@H]1O	Junin virus	XJCL3	VERO	EC50		1.2 µg/mL
CCCSc1nsc(-c2ccccc2)c1C(=O)O	Poliovirus	Brunhilde (type 1)	HEP-2	EC50		>500 µg/mL
CO[C@@H]1[C@H](O)[C@@H](CO)OC[C@H]1n1cnc(C(C)=O)n1	Yellow fever virus			EC50		64 µg/mL
Nc1ccn([C@@H]2C[C@H](CO)[C@@H](O)[C@H]2O)c(=O)n1	Junin virus	XJCL3	VERO	EC50		0.2 µg/mL
NC12CC3CC(CC1C3)C2	Influenza A virus	H2N2 A/Singapore/1/57	MDCK	inhibition	0.8 µg/mL	100%
Nc1ncnc2c1ncn2[C@H]1C[C@H](O)[C@@H](COP([O-])(=S)O[C@H]2C[C@H](n3ccc(=O)[nH]c3=O)O[C@@H]2CO)O1	Yellow fever virus			EC50		>50 µM
NC(=O)c1ncn([C@@H]2O[C@H](CO)[C@@H](O)[C@H]2O)n1	Yellow fever virus	Asibi	LLC-MK2	EC50		8 µg/mL
C1[NH2+]C2CC3CC1CC(C3)C2	Influenza A virus	H2N2 A/Singapore/1/57	MDCK	inhibition	1 µg/mL	100%
NC(=O)c1ncn([C@H]2CC[C@@H](CO)O2)n1	Rift valley fever virus			EC50		101 µg/mL
CSc1nsc(-c2ccccc2)c1C(=O)O	Poliovirus	Brunhilde (type 1)	HEP-2	EC50		>500 µg/mL
COc1cc(NC(=O)Nc2cccc(CNC(=O)O[C@H]3CCOC3)c2)ccc1-c1cnco1	Yellow fever virus		VERO	EC50		>31 µM
Nc1nc(=O)c2ncn(CCOCP(=O)(O)O)c2c(=O)[nH]1	Japanese encephalitis virus		HepG2.2.15	EC50		>500 µM
[NH3+]C12CC3CC(C1)CC(c1ccccc1)(C3)C2	Influenza A virus	H2N2 A/Singapore/1/57	MDCK	inhibition	8 µg/mL	100%
Nc1ncnc2c1ncn2[C@@H]1C=C(CO)[C@@H](O)[C@H]1O	Junin virus		VERO	EC50		6.5 µg/mL
Nc1ccn(C[C@H]2COP(=O)(O)CO2)c(=O)n1	Vaccinia virus		VERO	EC50		90 µM
Nc1ncnc2c1ncn2C[C@@H](CO)OCP(=O)(O)O	Monkeypox virus	Zaire strain wild-type	VERO 76	EC50		3.7 µM
CC(=O)Nc1cc2c(O)c(N=Nc3ccc(S(N)(=O)=O)cc3)c(S(=O)(=O)O)cc2cc1S(=O)(=O)O	Junin virus		VERO	EC50		>100 µM